Test results from ChEMBL document CHEMBL4184330 (J Med Chem, 2018).

Test system: Ebolavirus
Experiment: Antiviral activity against Ebolavirus like particle harboring full length EBOV Zaire wt/GIN/2014/ Kissidougou-C15 envelope glycoprotein and Influenzae virus envelope assessed as inhibition of viral infection in MDCK-SIAT1 cells after 48 hrs by e-GFP-based fluorescence assay

## CN(C)CCOc1ccc(/C(=C(/CCCl)c2ccccc2)c2ccccc2)cc1
  IC50: 150 nM
